In publication PMC7112222, “Investigation of pyrimidine nucleoside analogues as chemical probes to assess compound effects on the proliferation of Trypanosoma cruzi intracellular parasites” (PLoS Neglected Tropical Diseases, 2020):

System: T. cruzi intracellular amastigotes
Assay: Image-based assay of the number of T. cruzi infected cells (intracellular amastigotes in 3T3 host cells)
Type: cell-based, Trypanosoma cruzi
Conditions: IC50 24 h vs 48 h
Experimental: Parasites and host cells were maintained as outlined previously. Briefly, host 3T3 fibroblasts (ATCC, CCL-92) were grown in RPMI medium (Thermo Fisher Scientific, USA) with no phenol red, supplemented with 10% FBS (Thermo Fisher Scientific, USA) and incubated at 37°C in 5% CO2. Host cells were harvested at 70% confluency and were split every 2–3 days in 175 cm^2 flasks. 3T3 cells were cultured up to passage 7 as contact inhibition was reduced or lost at higher passages. Prior to infection with T. cruzi trypomastigotes, host cells were seeded at 1.2 x 10^6 cells in 75 cm^2 or 4 x 10^5 cells in 25 cm^2 flasks and grown for 24 hours before parasite addition. […]
The activity of the nucleoside analogues against T. cruzi intracellular amastigotes following 24, 48 hours exposure and compound wash off, was determined using image-based techniques as previously described. […]
IC50 values for inhibitory activity of both the nucleoside analogues tested as DNA probes and known inhibitors tested to determine their effect on replication of T. cruzi were calculated in GraphPad Prism 5, using sigmoidal dose response with variable slope. […] The p-value for difference in the % activity at Emax concentrations for compounds with known activity (EdU identified parasites, compared to Hoechst identified parasites) against T. cruzi was determined using GraphPad Prism 5, using an unpaired student’s t-test. […]

C#Cc1cn([C@H]2C[C@H](O)[C@@H](CO)O2)c(=O)nc1N [EdC, 5-ethynyl-2′-deoxy-cytidine]
fold increase in activity against T. cruzi, 48 vs 24 hours incubation: 1.8 fold
